The numbers were not newly measured in paper PMC4160447, which cites them from elsewhere.

Protein sequences, listed by entry. Tags and fused reporters are not part of them.
UniProt P08104, whole entry: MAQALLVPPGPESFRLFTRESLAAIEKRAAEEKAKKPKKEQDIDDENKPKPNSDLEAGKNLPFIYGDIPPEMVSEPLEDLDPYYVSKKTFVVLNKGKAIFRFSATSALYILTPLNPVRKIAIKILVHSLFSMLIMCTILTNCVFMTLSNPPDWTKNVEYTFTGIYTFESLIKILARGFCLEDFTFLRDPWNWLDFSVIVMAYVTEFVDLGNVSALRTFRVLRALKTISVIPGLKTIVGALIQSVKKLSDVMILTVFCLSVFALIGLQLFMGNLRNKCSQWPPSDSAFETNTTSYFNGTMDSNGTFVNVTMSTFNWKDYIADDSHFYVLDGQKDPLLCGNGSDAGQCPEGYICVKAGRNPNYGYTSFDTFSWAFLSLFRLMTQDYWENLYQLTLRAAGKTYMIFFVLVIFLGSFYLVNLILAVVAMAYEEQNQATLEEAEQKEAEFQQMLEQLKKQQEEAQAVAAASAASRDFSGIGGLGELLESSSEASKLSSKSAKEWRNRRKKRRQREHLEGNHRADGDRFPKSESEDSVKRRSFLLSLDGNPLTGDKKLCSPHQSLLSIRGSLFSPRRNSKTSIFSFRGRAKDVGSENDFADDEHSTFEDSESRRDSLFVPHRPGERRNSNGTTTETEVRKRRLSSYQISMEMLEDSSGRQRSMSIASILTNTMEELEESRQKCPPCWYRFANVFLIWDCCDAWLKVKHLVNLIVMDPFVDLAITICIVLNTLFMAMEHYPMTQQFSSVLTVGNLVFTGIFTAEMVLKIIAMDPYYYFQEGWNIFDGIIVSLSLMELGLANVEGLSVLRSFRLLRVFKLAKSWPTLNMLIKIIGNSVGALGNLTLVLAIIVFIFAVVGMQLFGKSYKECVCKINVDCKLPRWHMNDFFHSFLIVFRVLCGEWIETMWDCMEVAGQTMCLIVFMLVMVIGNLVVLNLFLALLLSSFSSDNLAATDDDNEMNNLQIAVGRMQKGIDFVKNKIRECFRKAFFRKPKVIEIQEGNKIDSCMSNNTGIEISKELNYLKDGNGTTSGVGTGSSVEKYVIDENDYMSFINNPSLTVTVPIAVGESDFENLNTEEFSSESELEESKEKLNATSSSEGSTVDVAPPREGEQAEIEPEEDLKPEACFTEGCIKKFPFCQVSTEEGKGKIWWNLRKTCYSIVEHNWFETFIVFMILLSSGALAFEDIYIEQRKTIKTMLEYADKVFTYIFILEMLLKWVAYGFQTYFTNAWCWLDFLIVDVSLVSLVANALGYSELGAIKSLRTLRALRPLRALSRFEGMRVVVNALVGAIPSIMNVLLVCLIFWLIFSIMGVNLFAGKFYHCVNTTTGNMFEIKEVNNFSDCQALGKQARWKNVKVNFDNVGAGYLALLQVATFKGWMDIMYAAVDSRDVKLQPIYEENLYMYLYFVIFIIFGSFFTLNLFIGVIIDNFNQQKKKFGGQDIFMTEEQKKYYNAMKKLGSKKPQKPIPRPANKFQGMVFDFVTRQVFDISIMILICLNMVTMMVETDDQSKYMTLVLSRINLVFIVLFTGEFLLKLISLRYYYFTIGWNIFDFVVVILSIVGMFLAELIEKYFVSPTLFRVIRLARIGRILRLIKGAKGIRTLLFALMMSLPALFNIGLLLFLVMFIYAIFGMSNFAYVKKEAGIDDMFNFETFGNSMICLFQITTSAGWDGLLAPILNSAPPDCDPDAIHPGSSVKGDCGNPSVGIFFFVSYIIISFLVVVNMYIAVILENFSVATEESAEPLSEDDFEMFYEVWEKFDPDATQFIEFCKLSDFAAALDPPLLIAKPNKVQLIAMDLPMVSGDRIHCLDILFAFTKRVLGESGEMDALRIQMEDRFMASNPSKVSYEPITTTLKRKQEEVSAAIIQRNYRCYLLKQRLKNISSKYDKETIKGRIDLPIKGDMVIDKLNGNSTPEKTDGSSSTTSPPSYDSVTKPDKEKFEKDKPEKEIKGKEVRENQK

A word on the Kd: it is the free concentration of one partner at which half of the binding sites on the other are occupied at equilibrium, for simple one-to-one binding.

The data set concerns the target NaV1.3 (Rattus norvegicus) (UniProt P08104).

For “mu-conotoxin BuIIIB (from UniProt C1J5M6)”, the Kd was 200 nM.
